Reference: patent US5622936A (priority 1988, dated 1997)

System: retrothelial sarcoma cells
Experiment: Cytotoxic activity in vitro, retrothelial sarcoma

How did the cytotoxicity turn out when `NP(=O)(O)N(CCCl)CCCl` was run?
The cytotoxicity was “cytotoxicity”.
